Anti-infective test results gathered from many reports (values: NIAID ChemDB through PubChem).

All rows: tests on isolated targets; species: Hepatitis C virus; target: HCV NS3 protease; read-out: Ki

Rows are shuffled and stem from different studies.

structure,result
CC(C)[C@H](NC(=O)[C@H](CCC(=O)O)NC(=O)[C@@H](N)CC(=O)O)C(=O)N[C@H](C(=O)N1CCC[C@H]1C(=O)NC1(B(O)O)CC1)C(C)C,1.6 µM
CSCC[C@H](NC(=O)[C@H](CCC(=O)O)NC(=O)[C@@H](N)CC(=O)O)C(=O)N[C@@H](CCC(=O)O)C(=O)N[C@@H](CCC(=O)O)C(=O)N[C@@H](CS)C(=O)O,0.6 µM
CCCC[C@H](NC(=O)[C@@H]1Cc2ccccc2CN1C(=O)[C@H](CS)NC(=O)[C@H](CC(C)C)NC(=O)[C@@H](N)C(C)C)C(=O)N[C@@H](CO)C(=O)N[C@@H](Cc1ccc(O)cc1)C(=O)O,>1000 µM
CC[C@H](NC(C)=O)C(=O)N[C@@H](CCC(=O)O)C(=O)N[C@H](C(=O)N[C@@H](CCC(=O)O)C(=O)N[C@@H](CC1CCCCC1)C(=O)N[C@@H](CC(F)F)C(=O)O)C(c1ccccc1)c1ccccc1,0.03 µM
C=CC[C@H](NC(=O)[C@H](CC1CCCCC1)NC(=O)[C@@H](NC(=O)[C@H](CC(C)C)NC(=O)[C@@H](CCC(=O)O)NC(=O)CCC(=O)O)[C@@H](C)CC)C(=O)O,3 µM
CC(=O)N[C@@H](CC(=O)O)C(=O)N[C@@H](CCC(=O)O)C(=O)N[C@H](C(=O)N[C@@H](CCC(=O)O)C(=O)N[C@@H](CC1CCCCC1)C(=O)NC(CC(F)F)C(=O)C(=O)O)C(c1ccccc1)c1ccccc1,0.004 µM
CC[C@H](C)[C@H](NC(=O)[C@H](CC(=O)O)NC(=O)[C@@H](N)CC(=O)O)C(=O)N[C@H](C(=O)N1CCC[C@H]1C(=O)N[C@@H](CS)C(=O)O)C(C)C,79 µM
CC(=O)N[C@H](C(=O)N[C@@H](CCC(=O)OC(C)(C)C)C(=O)N[C@@H](CC1CCCCC1)C(=O)NC(CC(F)F)C(=O)C(=O)O)C(c1ccccc1)c1ccccc1,4.6 µM
CCC(NC(=O)[C@H](CC(C)C)NC(=O)[C@@H](NC(=O)[C@H](Cc1ccccc1C)NC(=O)[C@H](NC(=O)[C@@H](NC(=O)OCc1ccccc1)C(=O)O)C(C)C)C(C)(C)C)B(O)O,0.08 µM
CC[C@H](C)[C@H](NC(=O)[C@H](CC(C)C)NC(=O)[C@@H](CCC(=O)O)NC(=O)[C@H](CCC(=O)O)NC(=O)CCC(=O)O)C(=O)N[C@@H](CC1CCCCC1)C(=O)NC1(c2nn[nH]n2)CC1,0.19 µM
CC(=O)N[C@@H](C(=O)O)C(=O)N[C@@H](CCC(=O)O)C(=O)N[C@H](C(=O)N[C@@H](CCC(=O)O)C(=O)N[C@@H](CC1CCCCC1)C(=O)N[C@@H](CC(F)F)C(=O)O)C(c1ccccc1)c1ccccc1,0.021 µM
CCC[C@H](NC(=O)[C@H](CC1CCCCC1)NC(=O)[C@@H](NC(=O)[C@H](CC(C)C)NC(=O)[C@@H](CCC(=O)O)NC(=O)CCC(=O)O)[C@@H](C)CC)C(=O)O,1.9 µM
CC[C@H](NC(C)=O)C(=O)N[C@@H](CCC(=O)O)C(=O)N[C@H](C(=O)N[C@@H](CCC(=O)O)C(=O)N[C@@H](CC1CCCCC1)C(=O)N[C@H](C=O)CC(F)F)C(c1ccccc1)c1ccccc1,0.0005 µM
CC(=O)N[C@@H](C(=O)O)C(=O)N[C@@H](CCC(=O)O)C(=O)N[C@H](C(=O)N[C@@H](CCC(=O)O)C(=O)N[C@@H](CC1CCCCC1)C(=O)N[C@H](C=O)CC(F)F)C(c1ccccc1)c1ccccc1,0.0005 µM
CCCC(NC(=O)[C@H](CC1CCCCC1)NC(=O)[C@@H](NC(=O)[C@H](CC(C)C)NC(=O)[C@@H](CCC(=O)O)NC(=O)CCC(=O)O)[C@@H](C)CC)C(=O)C(F)(F)C(F)(F)F,2.9 µM
C=CC1C[C@]1(NC(=O)C1C[C@@H](Oc2cc(-c3ccccc3)nc3ccccc23)CN1C(=O)[C@@H](NC(=O)[C@@H](NC(=O)[C@@H](CCC(=O)O)NC(=O)[C@H](CC(=O)O)NC(C)=O)C1CCCCC1)C(C)(C)C)C(=O)O,<0.01 µM
C=CC[C@H](NC(=O)[C@H](CC1CCCCC1)NC(=O)[C@@H](NC(=O)[C@H](CC(C)C)NC(=O)[C@@H](CCC(=O)O)NC(=O)[C@H](CCC(=O)O)NC(=O)CCC(=O)O)[C@@H](C)CC)C(=O)O,0.12 µM
CC(C)[C@H](NC(=O)[C@H](CCC(=O)O)NC(=O)[C@@H](N)CC(=O)O)C(=O)N[C@H](C(=O)N1CCC[C@H]1C(=O)N[C@@H](CCc1ccc(C(F)(F)F)cc1)B1O[C@@H]2C[C@@H]3C[C@H](C3(C)C)[C@]2(C)O1)C(C)C,0.002 µM

A second listing of 2 rows from above:

structure	result
C=CC[C@H](NC(=O)[C@H](CC1CCCCC1)NC(=O)[C@@H](NC(=O)[C@H](CC(C)C)NC(=O)[C@@H](CCC(=O)O)NC(=O)CCC(=O)O)[C@@H](C)CC)C(=O)O	3 µM
CCCC(NC(=O)[C@H](CC1CCCCC1)NC(=O)[C@@H](NC(=O)[C@H](CC(C)C)NC(=O)[C@@H](CCC(=O)O)NC(=O)CCC(=O)O)[C@@H](C)CC)C(=O)C(F)(F)C(F)(F)F	2.9 µM